Compound potency records, mixed from different reports. Data source: NIAID ChemDB in PubChem.

Common to all: growth or infection tests; species: Staphylococcus aureus

Neighbouring rows are from separate reports.

| structure | measure | strain or isolate | result |
|---|---|---|---|
| CCCCCCCCCCCC[N+](C)(C)COC1CCCC1 | MBC | ATCC 6538 | 14.4 µM |
| CC[C@H]1OC(=O)[C@H](C)C(=O)[C@H](C)[C@@H](O[C@@H]2O[C@H](C)C[C@H](N(C)C)[C@H]2O)[C@@]2(C)C[C@@H](C)C(=NC(C)=O)[C@H](C)[C@@H](OC/C(=N\Oc3ccccc3)CO2)[C@]1(C)O | MIC | 27660 (erythromycin-resistant) | 0.5 µg/mL |
| Cc1c(N)c(F)cc2c(=O)c(C(=O)O)cn(-c3cc(N)c(F)cc3F)c12 | MIC | 209P | 0.008 µg/mL |
| O=C1O[C@@H](COc2ccon2)CN1c1ccc(-n2ccnn2)c(F)c1 | MIC | 122 (novobiocin-resistant) | 8 µg/mL |
| CC[C@H]1OC(=O)[C@H](C)C(=O)[C@H](C)[C@@H](O[C@@H]2O[C@H](C)C[C@H](N(C)C)[C@H]2O)[C@@]2(C)C[C@@H](C)C(=NC(C)=O)[C@H](C)[C@@H](OC/C(=N\OCC#Cc3cncnc3)CO2)[C@]1(C)O | MIC | 25923 (erythromycin-susceptible) | 0.25 µg/mL |
| CCCCCCCC[N+](C)(C)COCC(CC)CCCC | MBC | ATCC 6538 | 7.4 µM |
| NCCNc1cc2c(cc1F)c(=O)c(C(=O)O)cn2C1CC1 | MIC | ATCC 6538P | 6.25 µg/mL |
| CCCCCCCCOC[N+](C)(C)CCCCCCCC | MBC | ATCC 6538 | 14.9 µM |
| CCCNCCNc1cc2c(cc1F)c(=O)c(C(=O)O)cn2C1CC1 | MIC | ATCC 5278 (methicillin-resistant) | >100 µg/mL |
| CCCCCCCCCCCC[N+](C)(C)COCCCCCCC | MIC | ATCC33592 | 1.32 µM |
| CC[C@H]1OC(=O)[C@H](C)C(=O)[C@H](C)[C@@H](O[C@@H]2O[C@H](C)C[C@H](N(C)C)[C@H]2O)[C@@]2(C)C[C@@H](C)C(=NC(C)=O)[C@H](C)[C@@H](OC/C(=N\Oc3ccc(-c4cnccn4)s3)CO2)[C@]1(C)O | MIC | 25923 (erythromycin-susceptible) | 0.25 µg/mL |
| CS(=O)(=O)N[C@H]1CCN(c2ccc(N3C[C@H](COc4ccon4)OC3=O)cc2F)C1 | MIC | 078 (oxford) | 2 µg/mL |
| CCCCCCCCCCCC[N+](C)(C)COC1CCCCC1 | MBC | ATCC 6538 | 27.6 µM |
| CCOC(CC(C)(C)CNc1cc2c(cc1F)c(=O)c(C(=O)O)cn2C1CC1)OCC | MIC | ATCC 5278 (methicillin-resistant) | >100 µg/mL |
| O=C1O[C@@H](COc2ccon2)CN1c1ccc(-n2cccc2)cc1 | MIC | 078 (oxford) | 4 µg/mL |
| CC(C)NCCCNc1cc2c(cc1F)c(=O)c(C(=O)O)cn2C1CC1 | MIC | ATCC 6538P | 6.25 µg/mL |
| O=C(CO)N[C@H]1CCN(c2ccc(N3C[C@H](CNc4ccon4)OC3=O)cc2F)C1 | MIC | 004 (methicillin quinolone-resistant) | 4 µg/mL |
| NC(=O)CNc1cc2c(cc1F)c(=O)c(C(=O)O)cn2C1CC1 | MIC | ATCC 5278 (methicillin-resistant) | >100 µg/mL |
| CC[C@H]1OC(=O)[C@H](C)C(=O)[C@H](C)[C@@H](O[C@@H]2O[C@H](C)C[C@H](N(C)C)[C@H]2O)[C@@]2(C)C[C@@H](C)C(=NC(C)=O)[C@H](C)[C@@H](OC/C(=N\Oc3ccc(-n4cccn4)nc3)CO2)[C@]1(C)O | MIC | 25923 (erythromycin-susceptible) | 0.13 µg/mL |
| Cc1c(NCCO)c(F)cc2c(=O)c(C(=O)O)cn(-c3cc(N)c(F)cc3F)c12 | MIC | W44 (methicillin-resistant) | 1 µg/mL |
| CC(N)CCCCNc1cc2c(cc1F)c(=O)c(C(=O)O)cn2C1CC1 | MIC | ATCC 6538P | >100 µg/mL |
| Cc1c(NC(C)C)c(F)cc2c(=O)c(C(=O)O)cn(-c3cc(N)c(F)cc3F)c12 | MIC | W806 (methicillin-resistant) | 0.25 µg/mL |
| CCN(CC)CCNc1cc2c(cc1F)c(=O)c(C(=O)O)cn2C1CC1 | MIC | ATCC 6538P | >100 µg/mL |

A second listing of 2 rows from above:

| structure | measure | strain or isolate | result |
|---|---|---|---|
| CS(=O)(=O)N[C@H]1CCN(c2ccc(N3C[C@H](COc4ccon4)OC3=O)cc2F)C1 | MIC | 078 (oxford) | 2 µg/mL |
| Cc1c(N)c(F)cc2c(=O)c(C(=O)O)cn(-c3cc(N)c(F)cc3F)c12 | MIC | 209P | 0.008 µg/mL |